Compound potency records, mixed from different reports. Data source: NIAID ChemDB in PubChem.

Shared fields: growth or infection tests; organism: Cryptococcus neoformans; read-out: MIC100

An empty or dashed field is not shown. Rows are shuffled and stem from different studies. MIC50, MIC90 and the like: level of inhibition, or share of isolates inhibited.

compound	read by	strain	result
Cc1ccc(-c2c3c(N)c4c(nc3nc3c2c(C)nn3-c2ccccc2)CCCC4)cc1	broth dilution / absorbance	ATCC 32264	250 µg/mL
COc1cc2oc3cc(O)cc(O)c3c(=O)c2c2c1OC(C)(C)C=C2	broth dilution	-	>64 µg/mL
COc1ccc(-c2cc3cc(C)cnc3[nH]2)cc1	-	ATCC90112	7.8 µg/mL
Cc1ccc(-c2c3c(N)c4c(nc3nc3c2c(C)nn3-c2ccccc2)CCC4)cc1	broth dilution / absorbance	ATCC 32264	250 µg/mL
C=CCC(Nc1ccc(OC)cc1)c1ccncc1	-	ATCC 32264	250 µg/mL
Cc1nn(-c2ccccc2)c2nc3nc4c(c(N)c3c(-c3ccc(Cl)cc3)c12)CCCC4	broth dilution / absorbance	ATCC 32264	>250 µg/mL
O=c1c2cc(O)ccc2oc2cccc(O)c12	broth dilution	-	>64 µg/mL
COc1ccc(-c2c3c(N)c4c(nc3nc3c2c(C)nn3-c2ccccc2)CCCC4)cc1	broth dilution / absorbance	ATCC 32264	250 µg/mL
C[C@H]1[C@H](O)[C@@H](C)/C=C/C=C/C=C/C=C/C=C/C=C/C=C/[C@H](O[C@@H]2O[C@H](C)[C@@H](O)[C@H](N)[C@@H]2O)C[C@@H]2O[C@](O)(C[C@@H](O)C[C@@H](O)CC[C@H](O)[C@@H](O)C[C@@H](O)CC(=O)O[C@H]1C)C[C@H](O)[C@H]2C(=O)O	-	ATCC90112	0.8 µg/mL
C[C@@H]1[C@H](O)[C@@H](C)/C=C/C=C/C=C/C=C/C=C/C=C/C=C/[C@H](O[C@@H]2O[C@H](C)[C@@H](O)[C@H](N)[C@@H]2O)C[C@@H]2O[C@](O)(C[C@@H](O)C[C@@H](O)[C@H](O)CC[C@@H](O)C[C@@H](O)CC(=O)O[C@H]1C)C[C@H](O)[C@H]2C(=O)O	broth dilution	-	1.63 µg/mL
COc1cccc(-c2cc3cccnc3[nH]2)c1	-	ATCC90112	15.6 µg/mL
Cc1ccc(-c2c3c(N)c4c(nc3nc3c2c(C)nn3-c2ccccc2)CCCCC4)cc1	broth dilution / absorbance	ATCC 32264	125 µg/mL
COc1ccc(-c2cc3cc(Cl)cnc3[nH]2)c(C)c1	-	ATCC90112	15.6 µg/mL
O=C1N[C@H](Cc2ccccc2)C(=O)N2CCC[C@H]12	broth dilution	-	16 µg/mL
COc1ccccc1-c1cc2cc(Br)cnc2[nH]1	-	ATCC90112	15.6 µg/mL
CCNC(=S)N/N=C(\N)c1ccccn1	-	ATCC 24067A	>416.7 µM
CSCC[C@H]1NC(=O)[C@H]2CCCN2C1=O	broth dilution	-	32 µg/mL

The first 2 rows once more:

compound | read by | strain | result
Cc1ccc(-c2c3c(N)c4c(nc3nc3c2c(C)nn3-c2ccccc2)CCCC4)cc1 | broth dilution / absorbance | ATCC 32264 | 250 µg/mL
COc1cc2oc3cc(O)cc(O)c3c(=O)c2c2c1OC(C)(C)C=C2 | broth dilution | - | >64 µg/mL